Read-outs that look alike come from different tables or passages of the source.
Tested on: Chlorella sp. HS26

**Q.** For `CC(=O)O` [Acetic Acid, acetic acid], which internal acetate concentration (before culture medium pH lowered from 7.5 to 6.5) is on record?
**A.** The internal acetate concentration was “less than 500 pm”.

**Q.** What about the internal acetate concentration (one day after pH lowered to 6.5) of the same compound?
**A.** The internal acetate concentration was “over 2500 ppm”.

— patent publication US20210284952A1, “METHODS OF APPLYING ACETATE TOXICITY AND INDUCING ACETATE UPTAKE IN MICROALGAE CULTURES” (HELIAE DEVELOPMENT LLC, priority 2016, published 2021)
